Pooled drug test results. Numbers come from NIAID ChemDB, via PubChem.

Common to all: growth or infection tests; organism: Human cytomegalovirus; measure: EC50

Blank or dashed fields: not listed here. Conditions beyond the fields shown may differ between rows. ECn is the concentration giving n% inhibition of infection, replication or growth. Two numbers with a dash give a range or band.

smiles	strain or isolate	conditions	cell line	result
O=c1[nH]c(=O)n([C@H]2CO[C@@H](CO)S2)cc1/C=C/Br	WFI			>100 µg/mL
Nc1ccn(CC=C(CO)CO)c(=O)n1				>100 µg/mL
CCCCCCCc1cc2cnc(OC3CCCC3)nc2o1	AD169			3 µM
C=C1[C@H](CO)[C@H]1Cn1cnc2c(=O)[nH]cnc21				>100 µM
Cc1ccn2c(C3SCCS3)cnc2c1	AD169		HEL	73 µM
CCOP(=O)(O)COCOn1cnc2c(=O)[nH]c(N)nc21	AD169			0.24 µg/mL
CCCCCCCCCCCCCCO[C@H]1O[C@H](CO)[C@@H](O)[C@H](O)[C@H]1O	TOWNE		HFF	89 µM
Cc1cc(C)cc(Cn2c(=O)ccn(Cc3ccc(Cl)cc3)c2=O)c1	AD169			>56 µM
CO[C@@H]1CCCC[C@H]1Nc1nc(C)c([N+](=O)[O-])c(-n2ccnc2)n1				0.15 µM
CCCCCCCC/C=C\CCCCCCCCO[C@H]1O[C@H](COP(=O)(O)C(=O)O)[C@@H](O)[C@H](O)[C@H]1O	TOWNE		HFF	4.5 µM
CCc1nccn1-c1nc(NC2CCc3c(F)ccc(F)c32)nc(C)c1[N+](=O)[O-]				0.09 µM
Cc1cc(C)cc(Cn2c(=O)ccn(Cc3ccccc3)c2=S)c1	AD169			12 µM
O=c1[nH]c(=O)n([C@H]2CO[C@@H](CO)O2)cc1/C=C/Br	WFI			>100 µg/mL
CCOC(=O)Cn1ccc(=O)n(Cc2cc(C)cc(C)c2)c1=O	AD169			>160 µM
Cc1nc(N2CCCCC2C)nc(-n2ccnc2)c1[N+](=O)[O-]				0.238 µM
COc1cc(O)c(Cl)cc1NC(=S)Nc1ccc(NC(=O)c2csnn2)cc1				0.021 µM
Nc1nc2c(ncn2/C=C2\[C@H](CO)C2(F)F)c(=O)[nH]1			HFF	>100 µM
C=C1[C@H](CO)[C@H]1Cn1cnc2c(=O)[nH]c(N)nc21				>100 µM
Nc1nc2c(ncn2C[C@H]2CO[C@H](CP(=O)(O)O)O2)c(=O)[nH]1				1.5 µg/mL
C/C(=C\Cn1cc(C)c(=O)[nH]c1=O)CO				>100 µg/mL
CN[C@H]1C[C@@H](n2cnc3c(N)ncnc32)[C@H](O)[C@@H]1O			HFF	>100 µg/mL
CCCCCCCCCCCCO[C@H]1O[C@H](COP(=O)(O)C(=O)O)[C@@H](O)[C@H](O)[C@H]1O	TOWNE		HFF	13.2 µM
Nc1ncnc2c1ncn2/C=C1\[C@H](CO)C1(F)F	TOWNE		HFF	21 µM
OC[C@H]1O[C@@H](n2c(Cl)nc3cc4cc(Cl)c(Cl)cc4cc32)[C@H](O)[C@@H]1O				8–16 µM
Nc1ncnc2c1c(Br)cn2COCCO	TOWNE			1.6 µM
O=C(O)P(=O)(O)O	TOWNE		HFF	77 µM
Nc1ncnc2c1ncn2/C=C1/[C@H](CO)C1(F)F			HFF	>100 µM
CN(Cc1cnc2nc(N)nc(N)c2n1)c1ccc(C(=O)N[C@@H](CCC(=O)O)C(=O)O)cc1	TOWNE	24 h	MRC-5	>0.2 µM
Nc1nc2c(ncn2CC[C@@H](O)CO)c(=O)[nH]1	AD169		HEL	285 µM
O=c1[nH]c(=O)n([C@@H]2CO[C@H](CO)O2)cc1/C=C/Br	WFI			5 µg/mL
CC(C)(C)[Si](OC[C@H]1C[C@@H](Cn2cnc3c(Cl)nc(N)nc32)c2cn(Cc3ccccc3)nc21)(c1ccccc1)c1ccccc1	AD169		HEL	0.44 µM
OC[C@H]1O[C@@H](n2c(Br)nc3cc(Cl)c(Cl)cc32)[C@H](O)[C@@H]1O				<1 µM
C/C(=C\Cn1ccc(N)nc1=O)CO				>100 µg/mL
Nc1ncnc2c1ncn2C=C1CC1CO	Ganciclovir-resistant (UL97 mutation)		KB	3.8 µM
Cc1cccn2c(C3OCCS3)cnc12	DAVIS		HEL	63 µM
COc1cc(OC)c(NC(=S)Nc2ccc(NC(=O)c3ccco3)cc2)cc1Cl	AD169		HFF	0.016 µM
O=c1ccn(CC=C(CO)CO)c(=O)[nH]1				>100 µg/mL
COC(=O)/C1=C/CC[C@](C)(O)[C@@H]2CC[C@@](C)(O2)C2C(=O)C(=C(C)[C@H]2O)CC1			HEL	20 µg/mL
O=c1[nH]c(=O)n([C@@H]2CO[C@H](CO)S2)cc1/C=C/Br	WFI			>100 µg/mL
O=C(Nc1ccc(NC(=S)Nc2ccc(Cl)c(Cl)c2)cc1)c1csnn1				0.019 µM
C=C1[C@H](CO)OC[C@@H]1n1cnc2c(N)ncnc21				>33.3 µg/mL
CCOC(=O)/C=C/C=C/[C@H]1O[C@@H](n2ccc(=O)[nH]c2=O)[C@H](O)[C@@H]1O	DAVIS		HEL	>120 µM
C=C1[C@H](CO)[C@H]1Cn1cnc2c(Cl)ncnc21				>100 µM
CC/C=C\Cn1c(=O)sc2c(=O)[nH]c(N)nc21	TOWNE			<40 µM
Cc1cc(C)cc(Cn2c(=O)ccn([C@H]3CCCO3)c2=O)c1	AD169			330 µM
Cc1ccn2c(C3OCCO3)cnc2c1	AD169		HEL	>116 µM
COc1cc(OC)c(NC(=S)Nc2ccc(NC(=O)c3cnns3)cc2)cc1Cl				0.15 µM
Cc1nc(N2CCCC2)nc(-n2ccnc2)c1[N+](=O)[O-]				0.093 µM
Cc1cc(C)cc(Cn2c(=S)ccn(Cc3cccc(Cl)c3)c2=O)c1	AD169			>140 µM
Cc1cncc2ccc(C(=O)NCc3ccccc3OC(C)C)nc12			HS68	0.004 µg/mL

Again, the opening 5 rows:

{"smiles": "O=c1[nH]c(=O)n([C@H]2CO[C@@H](CO)S2)cc1/C=C/Br", "strain or isolate": "WFI", "result": ">100 µg/mL"}
{"smiles": "Nc1ccn(CC=C(CO)CO)c(=O)n1", "result": ">100 µg/mL"}
{"smiles": "CCCCCCCc1cc2cnc(OC3CCCC3)nc2o1", "strain or isolate": "AD169", "result": "3 µM"}
{"smiles": "C=C1[C@H](CO)[C@H]1Cn1cnc2c(=O)[nH]cnc21", "result": ">100 µM"}
{"smiles": "Cc1ccn2c(C3SCCS3)cnc2c1", "strain or isolate": "AD169", "cell line": "HEL", "result": "73 µM"}